{
  "source": "paper PMC4982137",
  "about": "“Mycobacterium tuberculosis H37Ra: a surrogate for the expression of conserved, multimeric proteins of M.tb H37Rv” (Microbial Cell Factories, 2016)",
  "binders": {"B1": {"name": " (complex)", "chain 1": "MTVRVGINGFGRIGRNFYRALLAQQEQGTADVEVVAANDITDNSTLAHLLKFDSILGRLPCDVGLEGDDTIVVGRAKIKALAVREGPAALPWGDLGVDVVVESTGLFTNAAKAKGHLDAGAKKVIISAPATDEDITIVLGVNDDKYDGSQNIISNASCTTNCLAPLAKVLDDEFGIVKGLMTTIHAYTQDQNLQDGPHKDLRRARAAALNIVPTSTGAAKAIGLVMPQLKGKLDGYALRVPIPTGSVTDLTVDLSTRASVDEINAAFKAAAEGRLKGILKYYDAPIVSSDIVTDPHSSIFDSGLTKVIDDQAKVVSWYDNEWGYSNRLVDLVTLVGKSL", "chain 2": "MTIRVGVNGFGRIGRNFYRALATQKAEGKNTDIEIVAVNDLTDNATLAHLLKFDSILGRLPQDVSLEGDDTIVIGDTKIKALEVKEGPAALPWGDLGVDVVVESTGIFTNAAKAKGHLDAGAKKVIISAPATDEDITIVLGVNDDKYDGSQNIISNASCTTNCLGPLAKVLNDEFGIVKGLMTTIHAYTQDQNLQDGPHKDLRRARAAALNIVPTSTGAAKAIGLVLPELKGKLDGYALRVPIPTGSVTDLTAELAKSASVEDINAAMKAAAEGPLKGILKYYDAPIVSSDIVTDPHSSLYDAGLTKVIDNQAKVVSWYDNEWGYSNRLADLVALVGKSL"}},
  "key": {"transferrin-biotin": {"target": "T1, transferrin-biotin (human, UniProt P02787 20-698, biotin)", "T1 construct": "also called Tf; human holo-transferrin", "test": "pull-down"}, "human transferrin": {"target": "T2, human transferrin (human, UniProt P02787 20-698)", "T2 construct": "also called Tf; human holo-transferrin", "test": "far-Western, overlay or dot blot"}},
  "data": [
    {"binder": "B1", "values": [
      {"measurement": "binding result", "setting": "transferrin-biotin", "result": "binds"},
      {"measurement": "binding result", "setting": "human transferrin", "result": "binds"}
    ]}
  ]
}
